Literature values, collected in paper PMC12020373, “Improving pKa Predictions with Reparameterized Force Fields and Free Energy Calculations” (2025).

Assays:
[1] = molecular target: Cys403 (UniProt position 403, RPVINCRAGVG)
[2] = molecular target: Cys403 (UniProt position 403, RPVIACRAGVG)

protein tyrosine phosphatase YopH H402N (Yersinia (species not stated); H402N)
pKa [1]: 5.99

protein tyrosine phosphatase YopH H402A (Yersinia (species not stated); H402A)
pKa [2]: 7.35
